According to publication PMC10797010 (Frontiers in Molecular Biosciences, 2023):

Biological target: T1, wild-type RBD of SARS-CoV-2 spike protein (SARS-CoV-2, UniProt P0DTC2)
T1 construct: also called His-tagged RBD; source: bought: GenScript; not shown: His tag, C-terminal, kept
Test: BLI
Conditions: both partners purified

For STIEEQAKTFLDKFNHEAEDLFYQS (also called WT; WT peptide) [wild type ACE2-derived alpha-helix peptide], the Kd was 33 µM.
